Anti-infective test results gathered from many reports (values: NIAID ChemDB through PubChem).

All rows: tests in culture; species: Mycobacterium tuberculosis

Inhibition is in % at the dose shown (toxicity tests: loss of growth or viability). Blank or dashed fields: not listed here. MIC bound: limit read from a one-dose screen. a–b is a range or a potency band. Conditions beyond the fields shown may differ between rows. ECn is the concentration giving n% inhibition of infection, replication or growth. MIC50, MIC90 and the like: level of inhibition, or share of isolates inhibited.

compound	read by	strain	tested at	cell line	measure	result
O=C1CCCCc2ccc(c(O)c2)Oc2cc(ccc2O)CC1	broth dilution	H37Rv			MIC	200 µg/mL
CO[C@H]1CCC[C@H]2C1=C(C(=O)O)N1C(=O)[C@H]([C@@H](C)O)[C@@H]21	resazurin	H37Rv	1.22 µg/mL		inhibition	90%
CCCCCCCCC(=O)c1cc(O)cc(O)c1		H37Rv			MIC	6 µg/mL
CNc1nc2c(C)ccc3[nH]c(N(C)C)nc3c-2n1.Cl.Cl	BACTEC	H37Rv			MIC	≥12.5 µg/mL
COc1ccc2c(c1)n([O-])c(C#N)c(N1CCN(c3ccc([N+](=O)[O-])cc3)CC1)[n+]2=O		H37Rv			EC50	<6.25 µg/mL
CN(C=O)C(=S)[S][Sb]([S]C(=S)N(C)C=O)[S]c1nc2ccc(N=Nc3ccc(NS(=O)(=O)c4ccc(NC(=O)C(N5CC5)(N5CC5)N5CC5)cc4)cc3)cc2s1	BACTEC	H37Rv			MIC	≥128 µg/mL
N#Cc1nc2ccccc2nc1N1CCN(c2ccc([N+](=O)[O-])cc2)CC1		H37Rv			EC50	>6.25 µg/mL
Cc1cc(C(=O)N=Nc2c(O)[nH]c3ccc(Br)cc23)n[nH]1	resazurin	H37Ra			MIC50	>50 µg/mL
NC(=O)c1cnccn1	agar	H37Rv			MIC90	50 µg/mL
N#Cc1c(N)[n+]([O-])c2ccc(Cl)cc2[n+]1[O-]		H37Rv			MIC	6.25 µg/mL
O=C(C[C@H](NC(=O)OCc1ccccc1)C(=O)NC1Cc2ccccc2OC1=O)OCc1ccccc1	resazurin	H37Rv			MIC bound	>6.25 µg/mL
N#Cc1nc2cc(Cl)ccc2nc1N1CCN(c2ccc([N+](=O)[O-])cc2)CC1		H37Rv			EC50	>6.25 µg/mL
O=C(N=Nc1c(O)[nH]c2ccc(Br)cc12)c1cccs1	resazurin	H37Rv			MIC50	>50 µg/mL
C=C(OC/C(C)=C/CC[C@H](C)C1CC[C@@H](C)c2c(O)cc(C)cc21)c1ccncn1	resazurin	H37Rv			MIC	>200 µM
COc1ccc(S(=O)(=O)F)cc1NC(=O)CCc1ccc(N2C(N)=NC(N)=NC2(C)C)cc1Cl	BACTEC	H37Rv	12.5 µg/mL		inhibition	0%
O=C1c2cccc([N+](=O)[O-])c2C(=O)N1c1cccc(O)c1	resazurin	H37Ra			MIC50	>50 µg/mL
C/C(=C\CC[C@H](C)C1CC[C@@H](C)C2=C1C(=O)C(C)CC2=O)C(=O)O	resazurin	H37Rv			MIC	>200 µM
CN(C)[C@@H]1CCN(c2cc(Nc3ccc(C(F)(F)F)cn3)nc(-c3ccccc3)n2)C1		H37Rv			MIC99	>20 µM
NC[C@@H]1O[C@H](O[C@H]2[C@@H](O)[C@H](O[C@@H]3[C@@H](O)[C@H](N)C[C@H](N)[C@H]3O[C@H]3O[C@H](CO)[C@@H](O)C[C@H]3N)O[C@@H]2CO)[C@H](N)[C@@H](O)[C@@H]1O[C@H]1O[C@H](CO)[C@@H](O)[C@H](O)[C@@H]1O		Aoyama B (streptomycin-resistant)			EC50	25–50 µg/mL
CCCCCCCC/C=C\CCCCCCCc1cc(O)c(C)c(O)c1		H37Rv			MIC	59.4 µg/mL
O=C1Nc2ccccc2/C1=N/N=C/c1ccccc1[N+](=O)[O-]	resazurin	H37Rv			MIC50	>50 µg/mL
Cc1nn(C(=O)c2ccncc2)c2c1C(c1ccccc1)SC(N)=N2	BACTEC	H37Rv	12.5 µg/mL		inhibition	98%
O=C(O)c1cn(C2CC2)c2c(Cl)c(N3C[C@@H]4CCCN[C@@H]4C3)c(F)cc2c1=O		Susceptible			MIC90	0.13 µg/mL
Cn1c2cc3ccccc3cc2nc2cc3c(cc21)c(Cl)c(=O)c1ccccc13	BACTEC	H37Rv	12.5 µg/mL		inhibition	6%
CO[C@H]1/C=C/O[C@@]2(C)Oc3c(C)c(O)c4c(O)c(c(/C=N/N5CCN(C6CCCC6)CC5)c(O)c4c3C2=O)NC(=O)/C(C)=C\C=C\[C@H](C)[C@H](O)[C@@H](C)[C@@H](O)[C@@H](C)[C@H](OC(C)=O)[C@@H]1C		H37Rv			MIC	0.017 µg/mL
COC1=C(C)C(C)(O)c2[nH]c3ccc(OC)cc3c2C1=O		H37Rv			MIC	>128 µM
C[C@H](O)[C@H]1C(=O)N2C(C(=O)O)=C(S[C@@H]3CN[C@H](C(=O)N(C)C)C3)[C@H](C)[C@H]12	luminescence	H37Rv		THP-1	MIC50	6.78 µM
COc1cc2ccc1Oc1cc(ccc1OC)CCCCC(=O)CC2	broth dilution	H37Rv			MIC	>200 µg/mL
Cc1c(C(=O)O)nn(-c2ccccc2Cl)c1-c1ccc(Cl)cc1	agar	H37Rv			MIC90	25 µg/mL
CC(C)=C[C@@H]1C[C@H](C)C2CC[C@@H](C)c3c(O)cc(C)c1c32	resazurin	H37Rv			MIC	55.1 µM
COc1cc2oc(-c3ccc(O)cc3O)c(CC=C(C)C)c(=O)c2c(O)c1/C=C/C(C)C	BACTEC	H37Rv			MIC	≥12.5 µg/mL
Brc1ccc2[nH]c3ccc(Br)cc3c2c1		H37Rv			MIC	>128 µM
N#Cc1c(N2CCN(c3ccc([N+](=O)[O-])cc3)CC2)[n+](=O)c2ccc(Cl)cc2n1[O-]		H37Rv	6.25 µg/mL		inhibition	100%
c1ccc2c(c1)[nH]c1ccccc12		H37Rv			MIC	>128 µM
CCN(CC)CCOc1cc(Nc2cc(C3CC3)[nH]n2)nc(-c2ccccc2)n1		H37Rv			MIC99	5 µM
CCOC(=O)C1=C(C(=O)c2ccccc2)C(c2ccc([N+](=O)[O-])cc2)C(C(=O)c2ccccc2)=C(C(=O)OCC)N1	BACTEC	H37Rv			MIC bound	>12.5 µg/mL
COc1c(CO)c(C)c(CC(C)OC(C)=O)c2[nH]c3ccc(C(=O)CC4=C(C)CC(C)(C)CC4)cc3c12		H37Rv			MIC	8 µM
CC(C)=CCC[C@H](C)C1CC[C@@H](C)c2c(O)cc(C)c([N+](=O)[O-])c21	resazurin	H37Rv			MIC	47.2 µM
CO[C@H]1CCC[C@H]2C1=C(C(=O)OC(C)OC(=O)OC1CCCCC1)N1C(=O)[C@H]([C@@H](C)O)[C@@H]21	luminescence	H37Rv		THP-1	MIC90	5.2 µM
Cc1cc2nc(C#N)c(N3CCN(c4ccc([N+](=O)[O-])cc4)CC3)nc2cc1C		H37Rv	6.25 µg/mL		inhibition	0%
C1CCNC1.S=C(S)N1CCCC1		PZA-R			MIC	0.4 µg/mL
CC(C)=CCC[C@H](C)C1CC[C@@H](C)C2=C1C(=O)C(C)=CC2=O	resazurin	H37Rv			MIC	>200 µM
CCOC(=O)Cn1c2ccccc2c2cc3c(C)nccc3c(C)c21	resazurin	H37Rv			MIC bound	>6.25 µg/mL
Cc1ccc(C(=O)N=Nc2c(O)[nH]c3ccccc23)cc1	resazurin	H37Ra			MIC50	>50 µg/mL
CCS(=O)(=O)O.Nc1ccc(CCC(=O)Nc2ccc(S(=O)(=O)F)cc2)c(Cl)c1	BACTEC	H37Rv			MIC bound	>12.5 µg/mL
COCOc1ccc2cc1Oc1cc(ccc1OC)CCCCC(=O)CC2	broth dilution	H37Rv			MIC	>200 µg/mL
CN(C)[C@@H]1CCN(c2cc(Nc3cc(C(=O)NC4CC4)ccn3)nc(-c3ccccc3)n2)C1	resazurin	H37Rv			MIC90	64 µM
Cc1ccc(-c2n[nH]c(=O)n2-n2c(C)ccc2C)cc1		9361			MIC	2.58 µg/mL
Cc1c(C(=O)NN2CCCCC2)nn(-c2ccc(Cl)cc2Cl)c1-c1ccccc1	agar	H37Rv			MIC90	12.5 µg/mL
Cn1c(=O)c2nc(-c3ccccc3)nnc2n(C)c1=O	BACTEC	H37Rv			MIC bound	≤12.5 µg/mL
COc1ccc2c(c1)[n+]([O-])c(C#N)c(N)[n+]2[O-]		H37Rv	6.25 µg/mL		inhibition	97%
Cc1c(C(=O)O)nn(-c2ccc(Cl)cc2Cl)c1-c1ccccc1	agar	H37Rv			MIC90	6.25 µg/mL
O=C1c2ccc(O)cc2OC(c2cc(O)c(O)c(O)c2)C1O	BACTEC	H37Rv			MIC bound	>12.8 µg/mL
C[C@@H]1CN(CCn2c3ccccc3c3ccccc32)C[C@H](C)N1		H37Rv			MIC	30 µM
Nc1ccc(C(=O)CCl)c(Cl)c1	resazurin	H37Rv			MIC	>12.5 µg/mL
CC(C)(CNC(=O)C1CCC1)CNc1nc(Nc2cccc(CN3CCCC3)c2)ncc1Br		H37Rv			MIC99	5 µM
O=C(NN1CCCCC1)c1cc(-c2ccc(Cl)cc2)n(-c2ccc(Cl)cc2Cl)n1	agar	H37Rv			MIC90	25 µg/mL
CCCCCC/C=C\CCCCCCCc1cc(O)c(C)c(O)c1		H37Rv			MIC	19.3 µg/mL
COc1ccc2nc(Cl)c(C#N)nc2c1		H37Rv	6.25 µg/mL		inhibition	22%
O=C(NC(Cc1ccc(O)cc1)C(=O)NC(CO)C(=O)O)OCc1ccccc1	BACTEC	H37Rv	12.8 µg/mL		inhibition	19%
CO[C@H]1/C=C/O[C@@]2(C)Oc3c(C)c(O)c4c(O)c(c5c(c4c3C2=O)NC2(CCN(CC(C)C)CC2)N=5)=NC(=O)/C(C)=C\C=C\[C@H](C)[C@H](O)[C@@H](C)[C@@H](O)[C@@H](C)[C@H](OC(C)=O)[C@@H]1C		H37Rv			MIC	0.0025–0.0052 µg/mL
OB1N=C(c2cnccn2)Nc2ccccc21		H37Rv			MIC	128 µg/mL
Oc1cc(O)c2c(c1)O[C@H](c1ccc(O)c(O)c1)[C@@H](O)C2		H37Rv			MIC	150 µg/mL
CC(/C=N/O)=C\CC[C@H](C)C1CC[C@@H](C)c2c(O)cc(C)cc21	resazurin	H37Rv			MIC	>200 µM
COc1cc(O)cc(CCCCCCC/C=C\CCCCCc2cc(O)cc(O)c2)c1		H37Rv			MIC	50.2 µg/mL
Cn1cc(C(=O)N=Nc2c(O)n(C)c3ccccc23)c2ccccc21	resazurin	H37Ra			MIC50	25 µg/mL
O=[N+]([O-])[O][Ga]([O][N+](=O)[O-])[O][N+](=O)[O-]		MDR isolates	500 µM		inhibition	95%
CC1(C)Nc2cc3c(cc2-n2cccc21)oc1ccccc13	BACTEC	H37Rv	12.5 µg/mL		inhibition	-11%
CN1CCN(c2ccc(Nc3ncc(Br)c(NCC(C)(C)CNC(=O)C4CCC4)n3)cn2)CC1		H37Rv			MIC99	20 µM
COc1ccc2cc1Oc1cc(ccc1OC)CCC(O)CCCC2	broth dilution	H37Rv			MIC	>200 µg/mL
CCC[CH2][Sn]1([CH2]CCC)[O]C2C(O)OC(CO)C(O)C2[O]1	BACTEC	H37Rv	12.5 µg/mL		inhibition	99%
CC(O)C1C(=O)N2C(C(=O)O)C=C(SC3CN(C4=NCCC4)C3)C12	resazurin	H37Rv			MIC	7.5 µM
O=C(N=Nc1c(O)[nH]c2ccccc12)c1cncc(Br)c1	resazurin	H37Ra			MIC50	>50 µg/mL
C/C(C=N)=C\CC[C@H](C)C1CC[C@@H](C)c2c(O)cc(C)cc21	resazurin	H37Rv			MIC	100.1 µM
CN1C(=O)N(C)C2CC(=O)c3c(ccc4c3ncn4C)N2C1=O	BACTEC	H37Rv	12.5 µg/mL		inhibition	-16%
O=C1CCCCc2ccc(O)c(c2)Oc2ccc(cc2O)CC1	broth dilution	H37Rv			MIC	200 µg/mL
Cc1c(CNc2ccc(Cl)c(C(=O)NC(CC(=O)O)C(=O)O)c2)ccc2nc(N)nc(N)c12	BACTEC	H37Rv	12.5 µg/mL		inhibition	52%
Cc1c(C(=O)O)nn(-c2ccccc2)c1-c1ccc(Cl)cc1	agar	H37Rv			MIC90	12.5 µg/mL
CC(C)[C@H](C)[C@@H](O)[C@H](O)[C@@H](C)[C@H]1CC[C@H]2[C@@H]3COC(=O)[C@H]4C[C@H](O)[C@H](O)C[C@]4(C)[C@H]3CC[C@]12C	BACTEC	H37Rv			MIC	≥12.5 µg/mL
Cc1cc2c(cc1C)[n+](=O)c(C#N)c(Cl)n2[O-]		H37Rv			EC50	<6.25 µg/mL
Cc1ccc(N2C(=O)c3cccc([N+](=O)[O-])c3C2=O)c(O)c1	resazurin	H37Ra			MIC50	>50 µg/mL

For reference, 11 entries again:

compound,read by,strain,tested at,cell line,measure,result
Cc1cc2nc(C#N)c(N3CCN(c4ccc([N+](=O)[O-])cc4)CC3)nc2cc1C,,H37Rv,6.25 µg/mL,,inhibition,0%
CC(O)C1C(=O)N2C(C(=O)O)C=C(SC3CN(C4=NCCC4)C3)C12,resazurin,H37Rv,,,MIC,7.5 µM
O=C1c2ccc(O)cc2OC(c2cc(O)c(O)c(O)c2)C1O,BACTEC,H37Rv,,,MIC bound,>12.8 µg/mL
N#Cc1nc2cc(Cl)ccc2nc1N1CCN(c2ccc([N+](=O)[O-])cc2)CC1,,H37Rv,,,EC50,>6.25 µg/mL
C/C(C=N)=C\CC[C@H](C)C1CC[C@@H](C)c2c(O)cc(C)cc21,resazurin,H37Rv,,,MIC,100.1 µM
O=C(C[C@H](NC(=O)OCc1ccccc1)C(=O)NC1Cc2ccccc2OC1=O)OCc1ccccc1,resazurin,H37Rv,,,MIC bound,>6.25 µg/mL
COc1c(CO)c(C)c(CC(C)OC(C)=O)c2[nH]c3ccc(C(=O)CC4=C(C)CC(C)(C)CC4)cc3c12,,H37Rv,,,MIC,8 µM
O=C(N=Nc1c(O)[nH]c2ccc(Br)cc12)c1cccs1,resazurin,H37Rv,,,MIC50,>50 µg/mL
O=C1CCCCc2ccc(c(O)c2)Oc2cc(ccc2O)CC1,broth dilution,H37Rv,,,MIC,200 µg/mL
CN1CCN(c2ccc(Nc3ncc(Br)c(NCC(C)(C)CNC(=O)C4CCC4)n3)cn2)CC1,,H37Rv,,,MIC99,20 µM
COc1cc2oc(-c3ccc(O)cc3O)c(CC=C(C)C)c(=O)c2c(O)c1/C=C/C(C)C,BACTEC,H37Rv,,,MIC,≥12.5 µg/mL